PubChem BioAssay AID504761 | Drosophila RNAi Screening Center – 2011
The screen tested about 22,000 reagents; shown is a random part of those that have a named target and a result. In the full data, 116 (0.52%) got an active call. 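Calls depend on retest data that are not deposited; infection was ranked per plate without normalising between plates; the unit of the infection score is not given.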 Raw values are not corrected between plates. Reagents against one gene are numbered here. Not all columns of the deposit are shown. The record does not give: the amount of reagent, the time to read-out.

Purpose: 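Fly genes whose silencing reduces dengue virus type 2 infection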 (primary screen)
System: D.Mel-2 cells from Drosophila
Reagent: long dsRNA against Drosophila genes
Challenge: infection with dengue virus type 2; dose and infection time not stated
Read-out: 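Cells stained for dengue envelope protein and imaged; percent of infected cells per well on duplicate plates, ranked by infection, with stained nuclei counted for cell number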
Reading the numbers: infection score: higher = more virus-infected cells; cell count: higher = more cells in the well
Hit rule: 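Very low infection ranking in both replicate wells (chance probability at most 0.065), then a retest showing infection dropped 1.5-fold or more at p below 0.05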
Meaning of the calls: active = confirmed: knock-down lowers infection; inactive = not picked or not confirmed

Knock-down of Tfb4 (Transcription factor B4) #1 gave: infection score, replicate 1 = 3.22; cell count, replicate 1 = 6390; inactive. Silencing of Tfb4 (Transcription factor B4) #2 resulted in: infection score, replicate 1 = 14.7; cell count, replicate 1 = 5964; inactive. After knock-down of CG12419 (retired record) #1, the screen gave infection score, replicate 1 = 10.5; cell count, replicate 1 = 6287; inactive. Depletion of CG12419 (retired record) #2 resulted in: infection score, replicate 1 = 16.6; cell count, replicate 1 = 5916; inactive. After knock-down of CG32694 #1 the results were cell count, replicate 1 = 361; inactive. Against CG32694 #2, the values are infection score, replicate 1 = 0.84; cell count, replicate 1 = 6631; inactive.

For CG32694 #3, the entry reads infection score, replicate 1 = 4.82; cell count, replicate 1 = 7057; inactive. Against CG32694 #4, the values are infection score, replicate 1 = 3.63; cell count, replicate 1 = 5848; inactive. Depletion of Vmat (Vesicular monoamine transporter) #1 resulted in: infection score, replicate 1 = 13.4; cell count, replicate 1 = 6228; inactive. Vmat (Vesicular monoamine transporter) #2 showed infection score, replicate 1 = 12; cell count, replicate 1 = 6314; inactive. With knock-down of Vmat (Vesicular monoamine transporter) #3, the screen gave infection score, replicate 1 = 2.92; cell count, replicate 1 = 6611; inactive. With knock-down of CG8892, the screen gave infection score, replicate 1 = 4.54; cell count, replicate 1 = 5531; inactive.

salto #1 gave infection score, replicate 1 = 4.01; cell count, replicate 1 = 6114; inactive. Depletion of salto #2 resulted in: infection score, replicate 1 = 6.01; cell count, replicate 1 = 6110; inactive. Depletion of frma (fra mauro) #1 gave: infection score, replicate 1 = 12.5; cell count, replicate 1 = 5600; inactive. frma (fra mauro) #2 gave infection score, replicate 1 = 14.1; cell count, replicate 1 = 1348; inactive. CG17177 scored infection score, replicate 1 = 0.76; cell count, replicate 1 = 6071; inactive. Knock-down of St2 (Sulfotransferase 2) #1 resulted in: infection score, replicate 1 = 6.05; cell count, replicate 1 = 6432; inactive.

St2 (Sulfotransferase 2) #2 scored infection score, replicate 1 = 1.72; cell count, replicate 1 = 6729; inactive. For CG6614 the deposit lists infection score, replicate 1 = 7.42; cell count, replicate 1 = 6062; inactive. Depletion of Polr3E (RNA polymerase III subunit E) #1 resulted in: infection score, replicate 1 = 8.99; cell count, replicate 1 = 4793; inactive. Knock-down of Polr3E (RNA polymerase III subunit E) #2 gave: infection score, replicate 1 = 0.76; cell count, replicate 1 = 5365; inactive.

Targets above whose target name begins with F or f (2):
frma (fra mauro) #1 | infection score, replicate 1: 12.5; cell count, replicate 1: 5600; Call: inactive
frma (fra mauro) #2 | infection score, replicate 1: 14.1; cell count, replicate 1: 1348; Call: inactive
